The test system of this series is SupT1 cells. The settings on record: SupT1, 24 hrs, MTT assay (FIG. 2). On the technique in general: Tetrazolium dyes change colour on reduction, which living cells bring about.

On to “mixture of α, β and γ-N—N-dimethyl[70]fulleropyrrolidinium iodide [Compound 2a]”, for which the “lethal concentration 50” value is “over 32 μM”.

Values taken from US10358419B2, “1,3-dipolar [70]fulleropyrrolidinium iodide derivatives” (priority 2015, dated 2019).
